This is an account of results in article PMC7696940, “Effects of Rationally Designed Physico-Chemical Variants of the Peptide PuroA on Biocidal Activity towards Bacterial and Mammalian Cells” (International Journal of Molecular Sciences, 2020).

For this data set, the system named is HeLa cells. The data set is classed as cell-based, human. The note with it: ratio of IC50 NIH-3T3 to IC50 HeLa; bounds calculated with 250 μg/mL. On the procedure:
Cytotoxicity to human cervical carcinoma HeLa cells and mouse fibroblastic NIH-3T3 cells was determined using the MTT assay as per Scudiero et al. with minor modifications. The cells were maintained in Dulbecco’s Modified Eagle Medium (DMEM) with 10% foetal bovine serum (FBS) and 1% penicillin G in a humidified incubator (Heraeus Hera Cell incubator) at 37 °C with 5% CO2. They were seeded in 96-well microtiter plates at 1 × 10^4 cells/well and allowed to adhere for 24 h in the incubator. The medium was removed, and adherent cells were washed with PBS. Fresh media containing serially diluted peptides in PBS (final concentrations 4 to 250 µg/mL) were added and the cells incubated for 24 h. Cells without peptides were used as negative controls. Following incubations, the medium was removed, and adherent cells were washed with PBS. 150 µL of MTT (diluted to 0.33 mg/mL in DMEM) and the plates incubated for 3 h. The precipitated formazan was dissolved in 100 µL of DMSO and its absorbance measured at 570 nm. Cell viability was determined as: (OD570 nm peptide treated cells/(OD570 nm untreated cells) × 100. Positive cytotoxicity was defined as peptide concentration that causes 50% growth inhibition in a cell line (IC50). All tests were carried out in triplicate.

Consider “RKRWWRWWKWWKR-NH2 [dP1, diastereomeric counterpart of P1]”, for which the “Therapeutic Index (TI)” value is 2.
Turning to “WWRWWKWW-NH2 [dWW, diastereomeric counterpart of WW]”, the “Therapeutic Index (TI)” value is recorded as 2.
